In PMC9242477, “Type B and type A influenza polymerases have evolved distinct binding interfaces to recruit the RNA polymerase II CTD” (2022):

Molecular target: G2-CTD (wild-type full-length CTD of RPB1 fused to G2 and the SV40 NLS)
Assay: split-gaussia luciferase complementation assay (in vivo CTD binding)
Conditions: parent: est. 100; read off a plot

FluPolB (B/Memphis/13/2003) wt: PB2, PB1 and PA-G1 (from UniProt Q5V8Z9;Q5V8Y6;Q5V8X3) PA:K416E
percent of parent: 110 % of wt
